{
  "source": "patent US20060165650",
  "about": "(published 2006)",
  "test": "general procedure: Fmoc solid-phase peptide synthesis in flow; solid support providing C-terminus amide, substitution 0.50 mmol/g",
  "conditions": "whole synthesis, scale 0.2 mmol",
  "data": [
    {"substance": "Ac-CF AYI ARPLPRAHIKEYF Y -nh2", "values": [
      {"measurement": "crude yield", "setting": "based on the resin substitution degree", "value": 42, "unit": "%"},
      {"measurement": "crude mass", "value": 0.204, "unit": "g"},
      {"measurement": "isolated mass", "value": 0.038, "unit": "g"}
    ]}
  ]
}
